The target of this experiment is Aβ oligomers (from synthetic Aβ1–42), not stated, P05067 672-713.

For “human prion protein 23–231 labeled with NBD at position 31 NBD (from IANBD ester) on the cysteine introduced at position 31”, the result is “binds”. The result for “human prion protein 23–231 labeled with NBD at position 99 NBD (from IANBD ester) on the cysteine introduced at position 99” reads “binds”; that for “human prion protein 23–231 labeled with NBD at position 145 NBD (from IANBD ester) on the cysteine introduced at position 145”, “binds”. For “human prion protein 23–231 labeled with NBD at position 149 NBD (from IANBD ester) on the cysteine introduced at position 149” the value was “binds”; for “human prion protein 23–231 labeled with NBD at position 198 NBD (from IANBD ester) on the cysteine introduced at position 198”, “binds”.

As for “human prion protein 23–231 labeled with NBD at position 218 NBD (from IANBD ester) on the cysteine introduced at position 218”, the result is “binds”.

Source of the values: PMC4505445, “Identification of a Compound That Disrupts Binding of Amyloid-β to the Prion Protein Using a Novel Fluorescence-based Assay*” (The Journal of Biological Chemistry, 2015).
